Compound potency records, mixed from different reports. Data source: NIAID ChemDB in PubChem.

An empty or dashed field is not shown. Conditions beyond the fields shown may differ between rows. ICn: concentration for n% inhibition. MIC bound: limit read from a one-dose screen. Inhibition is in % at the dose shown (toxicity tests: loss of growth or viability).

Nc1nc(-c2ccccc2N=NN2CCN(N=Nc3ccccc3-c3nc(N)c4ccccc4n3)CC2)nc2ccccc12 ; test: culture ; agent: Mycobacterium tuberculosis ; strain: H37Rv ; read by: BACTEC ; measure: MIC bound ; result: ≤12.5 µg/mL
CSc1ccc(-c2cnc(N)c(N3CCN(c4ccncc4)CC3)n2)cc1 ; test: target ; agent: Cytomegalovirus ; protein: UL97 kinase ; measure: IC50 ; result: <1 µM
CCN(CC)c1ccc(N=C2C=C(C(=O)Nc3ccc(S(C)(=O)=O)cc3)C(=O)c3ccccc32)c(C)c1 ; test: culture ; agent: Mycobacterium tuberculosis ; strain: H37Rv ; read by: BACTEC ; measure: MIC bound ; result: >12.5 µg/mL
CC(=O)Nc1cc(C)ccc1O ; test: culture ; agent: Mycobacterium tuberculosis ; strain: H37Rv ; measure: MIC ; result: >100 µg/mL
CCCCCC(/C=N/NC(=O)c1ccc[n+](C)c1)=C\c1ccccc1.Cc1ccc(S(=O)(=O)[O-])cc1 ; test: culture ; agent: Mycobacterium tuberculosis ; strain: H37Rv ; read by: BACTEC ; measure: inhibition ; dose: 12.5 µg/mL ; result: 24%
Cc1ccccc1-c1cncc(N2CCN(c3ccccc3)CC2)n1 ; test: target ; agent: Cytomegalovirus ; protein: UL97 kinase ; measure: inhibition ; dose: 10 µM ; result: >15%
Nc1ccc(C(=O)O)c2ccccc12 ; test: culture ; agent: Mycobacterium tuberculosis ; strain: H37Rv ; measure: MIC ; result: >6.25 µg/mL
COc1cccc(/C=N/Nc2ccc([N+](=O)[O-])cn2)c1O ; test: culture ; agent: Mycobacterium tuberculosis ; strain: H37Rv ; read by: BACTEC ; measure: inhibition ; dose: 12.5 µg/mL ; result: 49%
c1ccc(C2CCN(c3cncc(-c4ccoc4)n3)CC2)cc1 ; test: target ; agent: Cytomegalovirus ; protein: UL97 kinase ; measure: IC50 ; result: <100 µM
O=[N+]([O-])c1cccc(-c2ccncc2)c1 ; test: culture ; agent: Mycobacterium tuberculosis ; strain: H37Rv ; measure: MIC ; result: >100 µg/mL
CC(=O)c1ccc(N2CCN(c3cncc(-c4ccc(C)cc4)n3)CC2)cc1 ; test: target ; agent: Cytomegalovirus ; protein: UL97 kinase ; measure: IC50 ; result: <10 µM
Fc1ccc(N2CCCCC2)c(NC(=S)c2ccncc2)c1 ; test: host protein ; protein: CHK2 ; read by: kinase activity ; measure: inhibition ; dose: 10 µM ; result: 6%
Cc1cccc(-n2[nH]c(NC(=O)c3cccc(N)c3)cc2=O)c1 ; test: culture ; agent: Mycobacterium tuberculosis ; strain: H37Rv ; measure: MIC ; result: >100 µg/mL
N#Cc1ccc(-c2cncc(N3CCN(c4ccccn4)CC3)n2)cc1 ; test: target ; agent: Cytomegalovirus ; protein: UL97 kinase ; measure: inhibition ; dose: 1 µM ; result: <50%
C[n+]1cccc(C(N)=O)c1.[Cl-] ; test: culture ; agent: Mycobacterium tuberculosis ; strain: H37Rv ; measure: MIC ; result: >100 µg/mL
CC(C)(C)OC(=O)NCCc1cccc2c1oc1c(CCC(=O)O)cccc12 ; test: culture ; agent: Mycobacterium tuberculosis ; strain: H37Rv ; read by: BACTEC ; measure: inhibition ; dose: 12.5 µg/mL ; result: -12%
O=C(c1ccccc1)c1ccsc1 ; test: culture ; agent: Mycobacterium tuberculosis ; strain: H37Rv ; measure: MIC ; result: >100 µg/mL
Fc1cccc(-c2cncc(N3CCN(c4ccc(F)cc4F)CC3)n2)c1 ; test: target ; agent: Cytomegalovirus ; protein: UL97 kinase ; measure: inhibition ; dose: 10 µM ; result: >15%
O=C(c1ccco1)N1CCN(C(=O)c2ccco2)CC1 ; test: culture ; agent: Mycobacterium tuberculosis ; strain: H37Rv ; read by: BACTEC ; measure: MIC bound ; result: >12.5 µg/mL
CCOc1ccc(-c2cncc(N3CCN(c4ccc(F)cc4)CC3)n2)cc1 ; test: target ; agent: Cytomegalovirus ; protein: UL97 kinase ; measure: inhibition ; dose: 10 µM ; result: >15%
COC(=O)[C@]1(C)CCC[C@]2(C)C3C[C@H]4OO[C@@]3(CC[C@@H]12)[C@H]1O[C@@]41C(C)C ; test: culture ; agent: Mycobacterium tuberculosis ; strain: H37Rv ; read by: BACTEC ; measure: inhibition ; dose: 12.8 µg/mL ; result: 0%
O=C(Nc1ccccc1)C1=C(C(=O)c2ccccc2)C=C1 ; test: culture ; agent: Mycobacterium tuberculosis ; strain: H37Rv ; measure: MIC ; result: >100 µg/mL
C1CCNCC1.S=C(S)N1CCCCC1 ; test: culture ; agent: Mycobacterium tuberculosis ; strain: H37Rv ; cells: VERO ; measure: MIC ; result: 0.8 µg/mL
O=c1c(O)c(-c2ccc(O)c(O)c2)oc2cc(O)cc(O)c12 ; test: culture ; agent: Mycobacterium tuberculosis ; strain: H37Rv ; measure: MIC ; result: >100 µg/mL
O=C(NCCO)c1cccc(-c2cncc(N3CCN(c4ccncc4)CC3)n2)c1 ; test: target ; agent: Cytomegalovirus ; protein: UL97 kinase ; measure: inhibition ; dose: 10 µM ; result: >15%
CCNCC(=O)O[C@]1(CC)C(=O)OCc2c1cc1n(c2=O)Cc2cc3ccccc3nc2-1.Cl ; test: culture ; agent: Mycobacterium tuberculosis ; strain: H37Rv ; read by: resazurin ; measure: inhibition ; dose: 6.25 µg/mL ; result: -6%
NC(=O)NC(=O)c1ccc([As](=O)(O)O)cc1 ; test: culture ; agent: Mycobacterium tuberculosis ; strain: H37Rv ; measure: MIC ; result: >100 µg/mL

The last 3 rows once more:

smiles	test	agent	strain	cells	protein	read by	measure	dose	result
O=C(NCCO)c1cccc(-c2cncc(N3CCN(c4ccncc4)CC3)n2)c1	target	Cytomegalovirus			UL97 kinase		inhibition	10 µM	>15%
CCNCC(=O)O[C@]1(CC)C(=O)OCc2c1cc1n(c2=O)Cc2cc3ccccc3nc2-1.Cl	culture	Mycobacterium tuberculosis	H37Rv			resazurin	inhibition	6.25 µg/mL	-6%
NC(=O)NC(=O)c1ccc([As](=O)(O)O)cc1	culture	Mycobacterium tuberculosis	H37Rv				MIC		>100 µg/mL